Measured values published in PMC9863266, “Preclinical Studies and Drug Combination of Low-Cost Molecules for Chagas Disease” (Pharmaceuticals, 2022).
Marks after values point to notes of the source that are not given here.

Legend:
Type in all cases: cell-based
[1] = tested on: Y strain of T. cruzi in the epimastigote form; assay: Mechanism of death by 1H-NMR; settings: for CH2/CH3 Ratio: 10 times IC50, control 0.27
[2] = tested on: epimastigote form of T. cruzi, Tulahuen 2 strain; assay: Mechanism of death by flow cytometry, AV/IP labeling; settings: 20 × IC50
Description: Parasites were immediately analyzed on an Accuri C6 flow cytometer (BD Bioscience, Franklin Lakes, New Jersey, U.S.). […] Ten thousand events were analyzed for each of the two independent experiments. Data were analyzed using BD CSampler software (BD Bioscience). Untreated parasites were used as a control. For the positive control of apoptosis and necrosis, the parasites were treated with hydrogen peroxide (H2O2) 50 µM and 100 µM for 2.5 h, respectively. These single-spot controls were used to calculate color compensation for flow cytometry.

[3] = tested on: epimastigote form of T. cruzi, Tulahuen 2 strain; assay: Viability by flow cytometry, CA-AM/IP labeling; settings: 20 × IC50
Description: Additionally, we evaluated the viability of treated parasites by flow cytometry analysis after incubation with methylated acetoxycalcein (CA-AM) and propidium iodide (IP). […] Since the methodology used to determine the IC50 is based on 5 days of incubation, doses 20 times higher were used to analyze cell viability in shorter times. Similarly, these compounds’ concentrations were used to determine the death mechanism involved at the aforementioned times.
Viability studies of parasites by flow cytometry: The feasibility studies were carried out by evaluating the esterase activity of the parasites using Acetoxymethylated Calcein (CA-AM) and IP (Thermo Fisher Scientific). […] Fluorescence intensity for 10,000 events was acquired from two independent experiments and data were analyzed using BD CSampler software (BD Bioscience).

Row | Structure (SMILES) | CH2/CH3 Ratio [1] | Cell death mechanism from AV/IP labeling [2] | Mechanism of death suggested by 1H-NMR [1] | Cell death mechanism from CA-AM/IP labeling [3]
1 | O=C(Cn1ccnc1[N+](=O)[O-])NCc1ccccc1 [Bnz, Benznidazole] | 0.50 | no apoptosis, late apoptosis, or necrosis was observed |  | 
2 | O=C(/C=C/C=C/c1ccco1)/C=C/C=C/c1ccco1 [Compound 793] | 3.00 * | late apoptosis | apoptosis and late necrosis | late apoptosis/necrosis mechanism
